Anti-infective test results gathered from many reports (values: NIAID ChemDB through PubChem).

Shared fields: tests in culture; agent: Mycobacterium tuberculosis

Neighbouring rows are from separate reports. MIC bound comes from a single tested concentration. A number after MIC or MFC names an inhibition level or a share of isolates. Fold resistance: result on the changed form divided by that on wild type. Inhibition is in % at the dose shown (toxicity tests: loss of growth or viability). An empty or dashed field is not shown.

| SMILES | endpoint | changes | tested at | strain or isolate | read by | value |
|---|---|---|---|---|---|---|
| COc1ccc(CNCCNCCc2ccccc2F)c(OC)c1 | MIC |  |  |  |  | 25 µM |
| CC(C)=CCC/C(C)=C/CNCCNCC12CC3CC(CC(C3)C1)C2 | MIC |  |  |  |  | 25 µM |
| CO[C@H]1/C=C/O[C@@]2(C)Oc3c(C)c(O)c4c(O)c(c(/C=N/N5CCN(C)CC5)c(O)c4c3C2=O)NC(=O)/C(C)=C\C=C\[C@H](C)[C@H](O)[C@@H](C)[C@@H](O)[C@@H](C)[C@H](OC(C)=O)[C@@H]1C | MIC |  |  | PR326 |  | 0.08 µg/mL |
| NNC(=O)c1ccncc1 | MIC |  |  | Clinical isolate 10367 | broth dilution | ≤0.2 µM |
| COc1ccc2c(=O)n(-c3cccc([N+](=O)[O-])c3)c(=O)oc2c1 | MIC |  |  | CNCTC MY331/88 |  | 8 µM |
| CCCCCCCCCCCNCCNC1CCC(C)CC1 | MIC |  |  |  |  | 25 µM |
| O=C1NNC=Nc2ccc(cc2)S(=O)(=O)c2ccc(cc2)N=CNNC1=O | MIC bound |  |  | H37Rv | BACTEC | >12.5 µg/mL |
| COc1ccc(Sc2ncnc3nc[nH]c23)cc1 | MIC90 |  |  | H37Rv |  | >6.25 µg/mL |
| CC1(C)[C@H]2CC[C@@H](CNCCNCCc3ccc(Cl)cc3Cl)[C@@H]1C2 | MIC |  |  |  |  | 25 µM |
| CC[C@H]1OC(=O)[C@H](C)[C@@H](O[C@H]2C[C@@](C)(OC)[C@@H](O)[C@H](C)O2)[C@H](C)[C@@H](O[C@@H]2O[C@H](C)C[C@H](N(C)C)[C@H]2O)[C@](C)(O)C[C@@H](C)CN(C)[C@H](C)[C@@H](O)[C@]1(C)O | MBC90 |  |  | Drug-resistant |  | >8 µg/mL |
| C[C@@H]1CN(c2c(F)c(N)c3c(=O)c(C(=O)O)cn(C4CC4)c3c2F)C[C@H](C)N1 | MIC |  |  | CSU18 |  | ≤0.125 µg/mL |
| CC(N)Cc1c(Cl)cc(N(C)C)cc1Cl | inhibition |  | 12.5 µg/mL | H37Rv | BACTEC | 8% |
| c1ccc(CSc2ccncc2)cc1 | MIC |  |  | H37Ra |  | >12.8 µg/mL |
| OCCCCCNCCN(Cc1ccccc1)Cc1ccccc1 | MIC |  |  |  |  | 50 µM |
| Cc1ccc(Sc2nc(Cl)nc3nc[nH]c23)cc1 | inhibition |  | 6.25 µg/mL | H37Rv |  | 0% |
| O=c1oc2ccc(Cl)cc2c(=O)n1-c1cccc(Cl)c1 | MIC |  |  | CNCTC MY331/88 |  | 16 µM |
| CC(C)c1ccc2c(c1)CC[C@H]1[C@](C)(CNCCNCC(C)c3ccccc3)CCC[C@]21C | MIC |  |  |  |  | 12.5 µM |
| CCOC(=O)c1cc(NC(C)=O)c(C)n1C | inhibition |  | 6.25 µg/mL | H37Rv | resazurin | 2% |
| C[C@H]1COc2c(N3CCN(C)CC3)c(F)cc3c(=O)c(C(=O)O)cn1c23 | MIC |  |  | 6R |  | 0.5 µg/mL |
| c1ccc(C(NCCNC2CCCc3ccccc32)c2ccccc2)cc1 | MIC |  |  |  |  | 50 µM |
| Cc1ccc2c(=O)n(-c3ccccc3)c(=O)oc2c1 | MIC |  |  | CNCTC MY331/88 |  | 31 µM |
| CC(CNCC(c1ccccc1)c1ccccc1)NC[C@@H]1CC[C@H]2C[C@@H]1C2(C)C | MIC |  |  |  |  | 12.5 µM |
| O=[N+]([O-])c1ccc(N/N=C/c2ccccc2O)nc1 | MIC |  |  | H37Rv | BACTEC | ≥12.5 µg/mL |
| Cc1ccccc1CSc1ccncc1 | inhibition |  | 6.25 µg/mL | H37Rv |  | 0% |
| CC(C)c1ccc2c(c1)CC[C@H]1[C@](C)(CNCCNCCc3ccc(F)cc3)CCC[C@]21C | MIC |  |  |  |  | 25 µM |
| CC(=O)n1cc(/C=C2/N=C(c3cccc(Cl)c3)OC2=O)c2ccccc21 | inhibition |  | 12.5 µg/mL | H37Rv | BACTEC | -6% |
| C[C@H]1COc2c(N3CCN(C)CC3)c(F)cc3c(=O)c(C(=O)O)cn1c23 | MIC |  |  | CSU11 |  | 0.25 µg/mL |
| COc1cccc2c1C(=O)c1c(O)c3c(c(O)c1C2=O)CC(O)(C(C)=O)CC3OC1CC(NCC2(O)OC(C(=O)NCCCN(C)C)C(O)C2O)C(O)C(C)O1 | MIC |  |  | ETA-R |  | 12.5 µg/mL |
| COc1ccc(CNCCNCCCCc2ccccc2)cc1OC | MIC |  |  |  |  | 12.5 µM |
| CCc1nc2ccccc2n1CCCCOc1ccc(C)c(Cl)c1 | fold resistance | QcrB M342T |  | H37Rv | turbidity / fluorescence | 8.9 |
| C=C(NC(=O)c1csc(-c2nc3c(cc2O)-c2nc(cs2)C(=O)N[C@@H]([C@@H](C)O)C(=O)N/C(=C(\C)OC)c2nc(cs2)C(=O)N[C@@H]2c4nc(cs4)C(=O)N[C@@H](COC(=O)c4c5c6c(cccc6n4O)COC(=O)[C@@H](O[C@H]4C[C@](C)(O)[C@H](N(C)C)[C@H](C)O4)[C@H]2OC5)c2nc-3cs2)n1)C(N)=O | MIC | Isoniazid-resistant |  | Clinical isolate 7791 | broth dilution | ≤2.5 µM |
| O=c1[nH]nc2c3cccc4cccc(c5ccc(O)c1c52)c43 | MIC |  |  | H37Rv | BACTEC | 3.13 µg/mL |
| C[C@H]1COc2c(N3CCN(C)CC3)c(F)cc3c(=O)c(C(=O)O)cn1c23 | MIC |  |  | Isolate 6 |  | 8 µg/mL |
| CCCCC(CC)CN1CN(CC(CC)CCCC)CC(C)(NCCNCc2cccc(C)c2)C1 | MIC |  |  |  |  | 6.25 µM |
| C[C@@H]1CN(c2c(F)c(N)c3c(=O)c(C(=O)O)cn(C4CC4)c3c2F)C[C@H](C)N1 | MIC |  |  | Isolate 1 |  | 1 µg/mL |
| CC1CN(c2c(F)cc3c(=O)c(C(=O)O)cn(C4CC4)c3c2F)CCN1 | MIC |  |  | CSU25 |  | 0.25 µg/mL |
| CCc1oc(=O)c(Cc2c(OC(C)=O)cc(OC(C)=O)c3c2OC(c2ccccc2)CC3=O)c(OC(C)=O)c1C | MIC bound |  |  | H37Rv | BACTEC | >12.5 µg/mL |
| NC[C@H]1O[C@H](O[C@H]2[C@H](O)[C@@H](O[C@H]3O[C@H](CO)[C@@H](O)[C@H](N)[C@H]3O)[C@H](N)C[C@@H]2N)[C@H](O)[C@@H](O)[C@@H]1O | MIC |  |  | Isolate 1 |  | 4 µg/mL |
| CCCCC(CC)CN1CN(CC(CC)CCCC)CC(C)(NCCNCCCO)C1 | MIC |  |  |  |  | 12.5 µM |
| CCSc1nc(Cl)nc2nc[nH]c12 | MIC |  |  | H37Ra |  | >12.8 µg/mL |
| NNC(=O)c1ccncc1 | MIC | INH RIF resistant |  | Clinical isolate BRF 45 | resazurin | 4 µg/mL |
| CC1CN(c2cc3c(cc2F)c(=O)c(C(=O)O)cn3-c2ccc(F)cc2F)CCN1 | MIC |  |  | ATCC 35827 |  | 0.5 µg/mL |
| CCCCCSc1ncnc2nc[nH]c12 | MIC90 |  |  | H37Rv |  | >6.25 µg/mL |
| FC(F)(F)Oc1ccc(CNCCNC2CCCCCCC2)cc1 | MIC |  |  |  |  | 50 µM |
| CO[C@H]1/C=C/O[C@@]2(C)Oc3c(C)c(O)c4c(O)c(c(/C=N/N5CCN(C)CC5)c(O)c4c3C2=O)NC(=O)/C(C)=C\C=C\[C@H](C)[C@H](O)[C@@H](C)[C@@H](O)[C@@H](C)[C@H](OC(C)=O)[C@@H]1C | MIC |  |  | Clinical isolate 10367 | broth dilution | ≤0.1 µM |
| Cc1ccc(-[n+]2c3cc(N)c(C)cc3nc3cc(C)c(Nc4ccccc4)cc32)cc1.O=S(=O)(O)O | MIC bound |  |  | H37Rv | BACTEC | >12.5 µg/mL |
| CO/C(C)=C1/NC(=O)[C@H]([C@@H](C)O)NC(=O)c2csc(n2)-c2cc(O)c(-c3nc(C(=O)NCCCN4CCOCC4)cs3)nc2-c2csc(n2)[C@@H]2COC(=O)c3c4c5c(cccc5n3O)COC(=O)[C@@H](O[C@H]3C[C@](C)(O)[C@H](N(C)C)[C@H](C)O3)[C@@H](OC4)[C@H](NC(=O)c3csc1n3)c1nc(cs1)C(=O)N2 | MIC | Isoniazid- and moxifloxacin-resistant |  | Clinical isolate 18343 | broth dilution | ≤25 µM |
| NC(=O)C(=O)C1C(=O)N(c2ccccc2)N=C1N | inhibition |  | 6.25 µg/mL | H37Rv | resazurin | 14% |
| Fc1ccccc1CNCCNC(c1ccccc1)c1ccccc1 | MIC |  |  |  |  | 50 µM |
| CO[C@H]1/C=C/O[C@@]2(C)Oc3c(C)c(O)c4c(O)c(c5c(c4c3C2=O)NC2(CCN(CC(C)C)CC2)N=5)=NC(=O)/C(C)=C\C=C\[C@H](C)[C@H](O)[C@@H](C)[C@@H](O)[C@@H](C)[C@H](OC(C)=O)[C@@H]1C | MIC |  |  | Strain 85 (D516V) |  | 0.25 µg/mL |
| CC1COc2c(N3CCN(C)CC3)c(F)cc3c(=O)c(C(=O)O)cn1c23 | MIC |  |  | SMI 19 | BACTEC | 0.5 µg/mL |
| Nc1cc(Cl)c(Cl)cc1S(=O)(=O)O | inhibition |  | 6.25 µg/mL |  | resazurin | -20% |
| COc1ccccc1CCNCCNC(C)Cc1ccc(Cl)cc1 | MIC |  |  |  |  | 50 µM |
| c1ccc(CNCCNCc2ccco2)cc1 | MIC |  |  |  |  | 50 µM |
| CC[C@H]1OC(=O)[C@H](C)[C@@H](O[C@H]2C[C@@](C)(OC)[C@@H](O)[C@H](C)O2)[C@H](C)[C@@H](O[C@@H]2O[C@H](C)C[C@H](N(C)C)[C@H]2O)[C@](C)(O)C[C@@H](C)C(=O)[C@H](C)[C@@H](O)[C@]1(C)O | MIC |  |  | ATCC 35823 |  | >8 µg/mL |
| O=c1nc(SCc2ccc(Cl)cc2[N+](=O)[O-])c2[nH]cnc2[nH]1 | inhibition |  | 6.25 µg/mL | H37Rv |  | 41% |
| CN1CCN(C(=S)N(C)C(=O)c2ccco2)CC1 | inhibition |  | 12.5 µg/mL | H37Rv | BACTEC | 13% |
| CCc1nc2ccccc2n1CCCCOc1ccccc1Cl | MIC90 | QcrB M342T |  | H37Rv | turbidity / fluorescence | 87 µM |
| C[C@H]1C[C@H](N)CN1c1cc2c(cc1F)c(=O)c(C(=O)O)cn2-c1ccc(F)cc1F | MIC |  |  | ATCC 35822 |  | 2 µg/mL |
| NCC[C@H](O)C(=O)N[C@@H]1C[C@H](N)[C@@H](O[C@H]2O[C@H](CN)[C@@H](O)[C@H](O)[C@H]2O)[C@H](O)[C@H]1O[C@H]1O[C@H](CO)[C@@H](O)[C@H](N)[C@H]1O | MIC |  |  | MDR3 | broth dilution / resazurin | 8 µg/mL |
| CCCCCCCCCCCNCCN[C@H](CO)Cc1ccc(Cl)cc1 | MIC |  |  |  |  | 25 µM |
| CC1CN(c2c(F)cc3c(=O)c(C(=O)O)cn(C4CC4)c3c2F)CC(C)N1 | MIC |  |  | CSU21 |  | ≤0.125 µg/mL |
| COc1ccc2c(c1)[n+](=O)c(C(=O)C/C(=N\OCCCc1ccccc1)C(=O)NC13CC4CC(CC(C4)C1)C3)c(C)n2[O-] | MIC |  |  | H37Rv | BACTEC | ≥12.5 µg/mL |
| COc1ccccc1CSc1ncnc2nc[nH]c12 | MIC90 |  |  | H37Rv |  | >6.25 µg/mL |
| Nc1ccc2cc(S(=O)(=O)[O-])c(N=Nc3ccc(-c4ccc(N=Nc5c(S(=O)(=O)[O-])cc6cc(S(=O)(=O)[O-])c(N=Nc7cccc([N+](=O)[O-])c7)c(N)c6c5O)cc4)cc3)c(O)c2c1.[Na+].[Na+].[Na+] | MIC bound |  |  | H37Rv | BACTEC | >12.5 µg/mL |
| CCc1nc2ccc(C)cc2n1CCCNc1ccc(Br)c(C)c1 | fold resistance | Rv1339 V90M |  | H37Rv | turbidity / fluorescence | 0.9 |
| O=c1c2cncnc2sc2nccn12 | MIC bound |  |  | H37Rv | resazurin | >6.25 µg/mL |
| CC(=O)NC[C@H]1CN(c2ccc(N3CCOCC3)c(F)c2)C(=O)O1 | MIC |  |  | 3R |  | 0.5 µg/mL |
| CCOC(=O)c1ccc(NC(=O)c2cnccn2)cc1 | inhibition |  | 12.5 µg/mL | H37Rv | BACTEC | 79% |
| NC(=O)c1cnccn1 | MIC |  |  | Isolate 11743 monodrug-resistant |  | >300 µg/mL |
| CN=c1sc2c(n1C)C(=O)c1ccccc1C2=O | MIC bound |  |  | H37Rv | BACTEC | ≤12.5 µg/mL |
| CCc1nc2ccc(C)cc2n1CCCNc1ccccc1 | MIC90 | QcrB M342T |  | H37Rv | turbidity / fluorescence | 4.1 µM |
| NNc1n[nH]c(=O)n1N | inhibition |  | 12.5 µg/mL | H37Rv | BACTEC | 11% |
| O=c1oc2ccc(Cl)cc2c(=O)n1-c1ccc(C(F)(F)F)cc1 | MIC |  |  | CNCTC MY331/88 |  | 1 µM |
| CC(C)C1=C(O)C2=C(C(=O)C1=O)[C@@]1(C)CCCC(C)(C)C1C[C@H]2O | MIC bound |  |  | H37Rv | BACTEC | >12.5 µg/mL |
| C[C@H]1COc2c(N3CCN(C)CC3)c(F)cc3c(=O)c(C(=O)O)cn1c23 | MBC |  |  | ATCC 35826 |  | 0.5 µg/mL |

The first 7 rows once more:

COc1ccc(CNCCNCCc2ccccc2F)c(OC)c1 ; endpoint: MIC ; value: 25 µM
CC(C)=CCC/C(C)=C/CNCCNCC12CC3CC(CC(C3)C1)C2 ; endpoint: MIC ; value: 25 µM
CO[C@H]1/C=C/O[C@@]2(C)Oc3c(C)c(O)c4c(O)c(c(/C=N/N5CCN(C)CC5)c(O)c4c3C2=O)NC(=O)/C(C)=C\C=C\[C@H](C)[C@H](O)[C@@H](C)[C@@H](O)[C@@H](C)[C@H](OC(C)=O)[C@@H]1C ; endpoint: MIC ; strain or isolate: PR326 ; value: 0.08 µg/mL
NNC(=O)c1ccncc1 ; endpoint: MIC ; strain or isolate: Clinical isolate 10367 ; read by: broth dilution ; value: ≤0.2 µM
COc1ccc2c(=O)n(-c3cccc([N+](=O)[O-])c3)c(=O)oc2c1 ; endpoint: MIC ; strain or isolate: CNCTC MY331/88 ; value: 8 µM
CCCCCCCCCCCNCCNC1CCC(C)CC1 ; endpoint: MIC ; value: 25 µM
O=C1NNC=Nc2ccc(cc2)S(=O)(=O)c2ccc(cc2)N=CNNC1=O ; endpoint: MIC bound ; strain or isolate: H37Rv ; read by: BACTEC ; value: >12.5 µg/mL